Pooled drug test results. Numbers come from NIAID ChemDB, via PubChem.

Shared fields: tests in culture; agent: Coxsackie virus; cells: VERO; read by: cytopathic effect; measure: EC50

Rows are shuffled and stem from different studies. ECn: concentration that inhibits the pathogen or its effect by n%.

smiles | strain or isolate | value
Nc1nc(N)c2nnn(C[C@H]3CC[C@@H](CO)C3)c2n1 | TYPE B4 | >100 µg/mL
Nc1nccc2c1ncn2[C@@H]1C[C@H](CO)[C@@H](O)[C@H]1O | TYPE B4 | 1 µg/mL
CCOC(=O)C(CCSC[C@H]1O[C@@H](n2ccc3c(N)ncnc32)[C@H](O)[C@@H]1O)NC(=O)COC | TYPE B4 | 150 µg/mL
Nc1nccc2c1ncn2[C@@H]1C[C@H](CO)[C@@H](O)[C@H]1O | TYPE B4 | >100 µg/mL
NC(=O)c1ccnc([C@@H]2O[C@H](CO)[C@@H](O)[C@H]2O)c1 | TYPE B4 | >400 µg/mL
Cc1cn([C@H]2C[C@@H]3OC[C@H]2[C@@H]3CO)c(=O)[nH]c1=O | TYPE B4 | >400 µg/mL
Nc1ncnc2c1ccn2[C@@H]1O[C@H](CO)[C@H](O)[C@H]1O | TYPE B4 | ≥40 µg/mL
Cc1cn([C@H]2C[C@H](O)[C@@H](CO)[C@@H]2C)c(=O)[nH]c1=O | TYPE B4 | >400 µg/mL
Nc1ncnc2c1ccn2[C@@H]1O[C@H](CO)[C@@H](O)[C@H]1O | TYPE B4 | 0.07 µg/mL
Nc1ncnc2c1ncn2[C@@H]1C=C[C@@H](O)[C@H]1O | TYPE B4 | >200 µg/mL
Nc1nc(Cl)c2nnn(C[C@H]3CC[C@@H](CO)C3)c2n1 | TYPE B4 | >200 µg/mL
CCCOC(=O)C(CCSC[C@H]1O[C@@H](n2ccc3c(N)ncnc32)[C@H](O)[C@@H]1O)NC(=O)C(F)(F)F | TYPE B4 | 150 µg/mL
Nc1nc(Cl)c2ncn(C[C@H]3CC[C@@H](CO)C3)c2n1 | TYPE B4 | >40 µg/mL
Nc1ncnc2c1ccn2[C@@H]1O[C@H](CO)[C@@H](O)[C@H]1O | TYPE B4 | 0.07 µg/mL
Cc1cn([C@@H]2C[C@H](CO)[C@@H](O)C2)c(=O)[nH]c1=O | TYPE B4 | >100 µg/mL
Nc1ncnc2c1ccn2[C@@H]1O[C@H](CO)C[C@H]1O | TYPE B4 | 60 µg/mL
Nc1ncnc2c1ncn2[C@@H]1C[C@H](CO)[C@@H](O)C1 | TYPE B4 | >100 µg/mL
N#Cc1cn([C@@H]2O[C@H](CO)[C@@H](O)[C@H]2O)c2ncnc(N)c12 | TYPE B4 | ≥0.04 µg/mL
NC(=O)c1csc([C@@H]2O[C@H](CO)[C@@H](O)[C@H]2O)n1 | TYPE B1/HA201468 | 130 µg/mL
C[C@H]1C[C@@H](n2cnc3c(N)ncnc32)[C@H](O)[C@@H]1O | TYPE B4 | >100 µg/mL
Nc1nc2c(nnn2C[C@H]2CC[C@@H](CO)C2)c(=O)[nH]1 | TYPE B4 | >200 µg/mL
Nc1ncnc2c([C@@H]3O[C@H](CO)[C@@H](O)[C@H]3O)[nH]nc12 | TYPE B4 | ≥10 µg/mL

For reference, 2 entries again:

smiles	strain or isolate	value
CCCOC(=O)C(CCSC[C@H]1O[C@@H](n2ccc3c(N)ncnc32)[C@H](O)[C@@H]1O)NC(=O)C(F)(F)F	TYPE B4	150 µg/mL
Cc1cn([C@H]2C[C@H](O)[C@@H](CO)[C@@H]2C)c(=O)[nH]c1=O	TYPE B4	>400 µg/mL